A mixed list of measured activities; the numbers were collected in NIAID ChemDB.

All rows: cytotoxicity tests; measure: CC50

Blank or dashed fields: not listed here. Conditions beyond the fields shown may differ between rows. CCn: concentration that lowers growth or viability of the cells by n%.

structure,cells,read by,value
COc1ccc2c(c1)c(/C=C(\C)C(=O)Nc1ccc(C(C)(C)C)cc1)cn2C(=O)c1ccccc1,Huh7.5,MTT,>100 µM
CCCCC(=O)OC1CC(OC(C)C(C)C(O)C(C)C(O)C(C)C2OC(=O)/C=C/CC(O)CC(O)CC(O)CCC(C)C(O)C[C@@]3(O)O[C@H](CC(O)CC(OC(=O)CC(=O)O)CCCC(O)C4OC4C2C)C[C@H](O)[C@H]3O)OC(C)C1O,KELA,,>100 µg/mL
C=C(C)C1CC[C@]2(C(=O)O)CC[C@]3(C)C(CCC4[C@@]5(C)C[C@@H](C(=O)[O-])[C@H](O)C(C)(C)C5CC[C@]43C)C12,1A2,XTT,15.9 µg/mL
CCCCCCCCCCCCCCOC(=O)NC(CCC(=O)O)(CCC(=O)O)CCC(=O)O,Huh7-Luc,,>42 µM
COC(=O)N[C@H](C(=O)N[C@@H](CCC[C@@H](CO)N(CCC(C)C)S(=O)(=O)c1ccc(CO)cc1)C(F)(F)F)C(c1ccccc1)c1ccccc1,T lymphoid cells,microscopy,>10 µM
COc1ccnc2[nH]cc(C(=O)C(=O)N3CCN(C(=O)c4ccccc4)C[C@H]3C)c12,HT-29,,>225 µM
C=CCSc1n[nH]c(-c2ccc([N+](=O)[O-])c(C)c2)n1,Panc-1,,>100 µg/mL
C=CCCCC(=O)NCC(c1ccc2c(c1)OCO2)C1OCCO1,RAJI,,<7.5 µM
Cc1cc(CCCCCCCON2C(=O)COc3c2ccc2ccccc32)on1,WIS HELA,crystal violet,>50 µg/mL
CCOC(=O)COc1ccc(C=O)cc1,RAJI,,>20 µM
C/C(=N\NC(=O)c1ccc([N+](=O)[O-])cc1)c1cccc(/C(C)=N/NC(=O)c2ccc([N+](=O)[O-])cc2)n1,HCT116,MTT,>100 µM
Nc1nc(=O)n([C@@H]2O[C@H](CO)[C@@H](O)[C@@H]2F)cc1I,P3HR-1,,5 µM
C=C1C=C(C)[C@]2(C=C[C@H](C)O2)C(C)(C)C1,HL-60 cells,MTT,2.7 µM
O=C(CCCCCCCCc1ccccc1)c1c(O)cc(O)cc1O,BC,resazurin,8.23 µg/mL
CCCCCCCCCCCCCCCC(=O)OC[C@H]1O[C@H](OC)[C@@H](O)[C@@H](O)[C@@H]1O,TZM-b1,,>100 µM
N#Cc1cccc(S(=O)(=O)N(Cc2c(Cl)cccc2Cl)c2cccc(C(=O)NC3CCC3)c2)c1,NHDF,absorbance,29 µM
Nc1nc2c(ncn2COC(CO)CO)c(=O)[nH]1,P3HR-1,,200 µM
Cc1cc(OCCCCCCc2c(Cl)cnn2-c2ccccc2)c2ccccc2n1,WIS HELA,crystal violet,10 µg/mL
CCCCSc1n[nH]c(-c2ccc([N+](=O)[O-])c(C)c2)n1,Panc-1,,>100 µg/mL
CC(C)=CCC/C(C)=C/CC/C(=C\CC/C(C)=C/C(=O)O)C(=O)O,NCI-H187,resazurin,>20 µg/mL
CCCCSc1n[nH]c(-c2cccc([N+](=O)[O-])c2C)n1,Panc-1,,>100 µg/mL
CC(=N\NC(=O)c1ccc([N+](=O)[O-])o1)/C(Cl)=N/Nc1ccc(S(=O)(=O)Nc2nccs2)cc1,MDA-MB-231,MTT,>50 µg/mL
CC1=CSC2=NC(/C=C/c3ccccc3Cl)=C(C(=O)/C=C/c3ccccc3Cl)C(c3ccccc3)N12,C1008 (Vero cells),resazurin,206 µg/mL
O=c1[nH]c(=O)n([C@@H]2O[C@H](CO)[C@@H](O)[C@@H]2F)cc1I,P3HR-1,,1 µM
CC(=N\NC(=O)c1ccc([N+](=O)[O-])o1)/C(Cl)=N/Nc1ccc(S(=O)(=O)Nc2ncccn2)cc1,MDA-MB-231,MTT,33.7 µg/mL
CCCCCCCCCCCCCCCC(=O)OC[C@H]1O[C@H](O[C@H]2O[C@H](CO)[C@H](O)[C@H](O)[C@H]2O)[C@@H](O)[C@@H](O)[C@@H]1O,TZM-b1,,48.35 µM
COc1ccc2c(c1)[nH]c1cc(OC)c(C=O)cc12,1A2,tetrazolium,232 µM
[N-]=[N+]=N[C@H]1[C@@H](F)[C@H](n2cnc3c(N)ncnc32)O[C@@H]1CO,VERO B,,>400 µg/mL
CCSc1n[nH]c(-c2ccc([N+](=O)[O-])c(C)c2)n1,Panc-1,,>100 µg/mL
CC1=CSC2=NC(/C=C/c3ccc(Cl)cc3)=C(C(=O)/C=C/c3ccc(Cl)cc3)C(c3ccccc3)N12,C1008 (Vero cells),resazurin,252 µg/mL
C/C(=C\c1cn(S(=O)(=O)Cc2ccccc2)c2ccccc12)C(=O)Nc1ccc(C(C)(C)C)cc1,Huh7.5,MTT,54.1 µM
CCN([C@H](CO)CCC[C@H](C)NC(=O)[C@@H](NC(=O)OC)C(c1ccccc1)c1ccccc1)S(=O)(=O)c1ccc(N)cc1,T lymphoid cells,microscopy,>10 µM
COc1ccc2nc3n[nH]c(C)c3c(Cl)c2c1,WI-38,,>100 µg/mL
COC(=O)N[C@@H](Cc1ccccc1Cl)C(=O)N[C@@H](C)CCC[C@@H](CO)N(C)S(=O)(=O)c1ccc(CO)cc1,T lymphoid cells,microscopy,>10 µM
C/C(=C\c1cn(C)c2ccc(C#N)cc12)C(=O)Nc1ccc(C(C)(C)C)cc1,Huh7.5,MTT,27.2 µM
Cc1cnsc1CCCCCCOc1ccc2c(c1)oc1ccccc12,WIS HELA,crystal violet,50 µg/mL
C=CCSc1n[nH]c(-c2ccc(C(F)(F)F)cc2)n1,Panc-1,,>100 µg/mL
CC1=CSC2=NC(/C=C/c3ccccc3)=C(C(=O)/C=C/c3ccccc3)C(c3ccc(Cl)cc3)N12,C1008 (Vero cells),resazurin,320 µg/mL
O=C(N/N=C(/CS(=O)(=O)c1ccccc1)c1ccc(F)cc1)c1ccc([N+](=O)[O-])o1,MDA-MB-231,MTT,>50 µg/mL
COC(=O)N[C@@H](Cc1ccccc1Cl)C(=O)N[C@@H](C)CCC[C@@H](CN)N(CCC(C)C)S(=O)(=O)c1ccc(N)cc1,T lymphoid cells,microscopy,>10 µM
c1ccc2c(c1)oc1cc(OCCCCCCn3ccnc3)ccc12,WIS HELA,crystal violet,5 µg/mL
CCCCCCCCCCCCCCCCOC1O[C@@H](CO)[C@H](O)[C@H](O)[C@@H]1O,TZM-b1,,43.51 µM
Nc1nc2c(ncn2[C@@H]2O[C@H](CO)[C@@H](F)[C@H]2O)c(=O)[nH]1,VERO B,,>400 µg/mL
CC[C@@H](CCC[C@@H](CO)N(C(C)C)S(=O)(=O)c1ccc(CO)cc1)NC(=O)[C@@H](NC)C(c1ccccc1)c1ccccc1,T lymphoid cells,microscopy,>10 µM
COc1cc(/C=C/C(=O)C2=C(/C=C/c3cc(OC)c(OC)c(OC)c3)N=C3SC=C(C)N3C2c2ccccc2)cc(OC)c1OC,C1008 (Vero cells),resazurin,260 µg/mL
Cc1cc(CCCCCCCOc2cc(C)nc3ccccc23)on1,WIS HELA,crystal violet,50 µg/mL
C=C(C)C1CC[C@@H]2CC[C@]3(C)C(CCC4[C@@]5(C)CC[C@H](O)C(C)(C)C5CC[C@]43C)C12,1A2,XTT,11.6 µg/mL
CC(C)(C)c1ccc(NC(=O)/C(F)=C\c2c[nH]c3ccccc23)cc1,Huh7.5,MTT,10.4 µM
CCCN(Cc1ccc(OCC(=O)OCC)cc1)C(=O)c1ccc(-c2ccc3c(c2)OCO3)cc1,RAJI,,>20 µM
Cc1cc(CCCCCCCOc2nc3ccccc3o2)on1,WIS HELA,crystal violet,50 µg/mL
C=CC(C)(C)c1c2c(c(O)c3ccc(=O)oc13)C(=O)CC(C)(C)O2,1A2,tetrazolium,37.2 µM
COC(=O)N[C@H](C(=O)N[C@H](CCC[C@@H](CO)N(C(C)C)S(=O)(=O)c1ccc(CO)cc1)C(F)(F)F)C(c1ccccc1)c1ccccc1,T lymphoid cells,microscopy,>10 µM
CCOC(=O)COc1ccccc1CN(C(=O)c1ccc(-c2ccc3c(c2)OCO3)cc1)C(C)C,RAJI,,>20 µM
Clc1cnn(-c2ccccc2)c1CCCCCCOc1ccc2c(c1)[nH]c1ccccc12,WIS HELA,crystal violet,25 µg/mL
CC(C)N(Cc1cccc(OCCCCCC(=O)OC(=O)O)c1)C(=O)c1ccc(-c2ccc3[nH]ccc3c2)cc1,HepG2,,>20 µM
CC(=N\NC(=O)c1ccc([N+](=O)[O-])o1)/C(Cl)=N/Nc1ccccc1,MDA-MB-231,MTT,>50 µg/mL
CCCNCc1cccc(OCCCCCC(=O)OCC)c1,BJ,,>20 µM
CC[C@@H](CCC[C@@H](CO)N(C(C)C)S(=O)(=O)c1ccc(CO)cc1)NC(=O)[C@@H](NC(=O)OC)C(c1ccccc1)c1ccccc1,T lymphoid cells,microscopy,>10 µM

7 of the rows above, restated:

structure,cells,read by,value
CC[C@@H](CCC[C@@H](CO)N(C(C)C)S(=O)(=O)c1ccc(CO)cc1)NC(=O)[C@@H](NC(=O)OC)C(c1ccccc1)c1ccccc1,T lymphoid cells,microscopy,>10 µM
Cc1cnsc1CCCCCCOc1ccc2c(c1)oc1ccccc12,WIS HELA,crystal violet,50 µg/mL
COC(=O)N[C@H](C(=O)N[C@H](CCC[C@@H](CO)N(C(C)C)S(=O)(=O)c1ccc(CO)cc1)C(F)(F)F)C(c1ccccc1)c1ccccc1,T lymphoid cells,microscopy,>10 µM
CCCNCc1cccc(OCCCCCC(=O)OCC)c1,BJ,,>20 µM
COc1ccc2c(c1)[nH]c1cc(OC)c(C=O)cc12,1A2,tetrazolium,232 µM
CC1=CSC2=NC(/C=C/c3ccccc3Cl)=C(C(=O)/C=C/c3ccccc3Cl)C(c3ccccc3)N12,C1008 (Vero cells),resazurin,206 µg/mL
CCCCCCCCCCCCCCCC(=O)OC[C@H]1O[C@H](OC)[C@@H](O)[C@@H](O)[C@@H]1O,TZM-b1,,>100 µM